{
  "sequences": {"note": "Amino acid sequences for entries named in this document (tags omitted).", "UniProt P04775, whole entry N1662A, looked up": "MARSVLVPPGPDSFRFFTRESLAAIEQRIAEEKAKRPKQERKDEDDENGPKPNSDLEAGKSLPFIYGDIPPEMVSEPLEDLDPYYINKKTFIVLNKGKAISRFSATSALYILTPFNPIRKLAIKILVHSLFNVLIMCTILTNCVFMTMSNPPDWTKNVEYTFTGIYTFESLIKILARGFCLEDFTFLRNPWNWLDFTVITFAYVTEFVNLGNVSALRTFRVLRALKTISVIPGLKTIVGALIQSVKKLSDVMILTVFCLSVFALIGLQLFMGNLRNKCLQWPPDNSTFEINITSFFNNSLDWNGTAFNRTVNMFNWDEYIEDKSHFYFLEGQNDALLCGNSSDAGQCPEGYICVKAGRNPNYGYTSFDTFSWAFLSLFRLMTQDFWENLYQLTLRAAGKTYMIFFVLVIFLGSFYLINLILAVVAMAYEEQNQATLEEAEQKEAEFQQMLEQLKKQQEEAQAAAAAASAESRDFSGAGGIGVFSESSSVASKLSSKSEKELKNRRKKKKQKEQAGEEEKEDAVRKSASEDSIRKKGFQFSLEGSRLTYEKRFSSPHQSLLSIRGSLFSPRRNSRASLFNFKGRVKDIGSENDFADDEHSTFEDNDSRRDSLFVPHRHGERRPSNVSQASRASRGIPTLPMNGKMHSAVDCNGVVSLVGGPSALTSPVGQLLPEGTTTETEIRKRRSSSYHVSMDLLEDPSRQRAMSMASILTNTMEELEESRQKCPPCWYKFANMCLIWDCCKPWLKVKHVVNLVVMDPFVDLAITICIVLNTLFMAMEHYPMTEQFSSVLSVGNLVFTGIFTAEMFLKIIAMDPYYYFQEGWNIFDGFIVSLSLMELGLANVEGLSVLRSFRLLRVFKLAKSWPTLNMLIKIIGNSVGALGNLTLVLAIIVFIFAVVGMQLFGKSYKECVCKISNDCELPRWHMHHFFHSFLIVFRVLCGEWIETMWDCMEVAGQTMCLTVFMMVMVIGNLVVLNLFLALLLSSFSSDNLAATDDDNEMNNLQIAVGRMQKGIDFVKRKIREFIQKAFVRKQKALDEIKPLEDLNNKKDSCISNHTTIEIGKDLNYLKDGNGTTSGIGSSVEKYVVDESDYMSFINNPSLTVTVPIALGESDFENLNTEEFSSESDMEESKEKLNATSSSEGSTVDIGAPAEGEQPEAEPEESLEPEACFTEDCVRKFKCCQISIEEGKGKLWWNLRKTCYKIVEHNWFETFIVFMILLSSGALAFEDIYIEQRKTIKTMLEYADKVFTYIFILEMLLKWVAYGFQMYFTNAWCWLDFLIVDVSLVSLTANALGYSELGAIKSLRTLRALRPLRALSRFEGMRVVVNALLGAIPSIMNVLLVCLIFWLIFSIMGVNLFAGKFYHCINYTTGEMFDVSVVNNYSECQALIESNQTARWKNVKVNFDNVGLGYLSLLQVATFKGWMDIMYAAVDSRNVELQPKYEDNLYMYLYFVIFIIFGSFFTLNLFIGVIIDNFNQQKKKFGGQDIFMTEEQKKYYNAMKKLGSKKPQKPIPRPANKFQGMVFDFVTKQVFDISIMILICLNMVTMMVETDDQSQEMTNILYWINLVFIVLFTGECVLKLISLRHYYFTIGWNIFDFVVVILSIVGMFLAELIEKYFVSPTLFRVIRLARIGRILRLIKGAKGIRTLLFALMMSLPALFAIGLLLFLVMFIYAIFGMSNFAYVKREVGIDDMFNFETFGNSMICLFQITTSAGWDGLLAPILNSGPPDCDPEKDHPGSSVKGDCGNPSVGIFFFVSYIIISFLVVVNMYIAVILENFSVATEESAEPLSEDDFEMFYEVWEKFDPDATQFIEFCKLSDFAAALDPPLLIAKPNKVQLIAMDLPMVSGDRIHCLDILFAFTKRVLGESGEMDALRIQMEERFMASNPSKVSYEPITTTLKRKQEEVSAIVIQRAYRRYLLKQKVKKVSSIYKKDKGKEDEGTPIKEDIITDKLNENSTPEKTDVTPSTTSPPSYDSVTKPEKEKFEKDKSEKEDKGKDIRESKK", "UniProt P04775, whole entry F1756A, looked up": "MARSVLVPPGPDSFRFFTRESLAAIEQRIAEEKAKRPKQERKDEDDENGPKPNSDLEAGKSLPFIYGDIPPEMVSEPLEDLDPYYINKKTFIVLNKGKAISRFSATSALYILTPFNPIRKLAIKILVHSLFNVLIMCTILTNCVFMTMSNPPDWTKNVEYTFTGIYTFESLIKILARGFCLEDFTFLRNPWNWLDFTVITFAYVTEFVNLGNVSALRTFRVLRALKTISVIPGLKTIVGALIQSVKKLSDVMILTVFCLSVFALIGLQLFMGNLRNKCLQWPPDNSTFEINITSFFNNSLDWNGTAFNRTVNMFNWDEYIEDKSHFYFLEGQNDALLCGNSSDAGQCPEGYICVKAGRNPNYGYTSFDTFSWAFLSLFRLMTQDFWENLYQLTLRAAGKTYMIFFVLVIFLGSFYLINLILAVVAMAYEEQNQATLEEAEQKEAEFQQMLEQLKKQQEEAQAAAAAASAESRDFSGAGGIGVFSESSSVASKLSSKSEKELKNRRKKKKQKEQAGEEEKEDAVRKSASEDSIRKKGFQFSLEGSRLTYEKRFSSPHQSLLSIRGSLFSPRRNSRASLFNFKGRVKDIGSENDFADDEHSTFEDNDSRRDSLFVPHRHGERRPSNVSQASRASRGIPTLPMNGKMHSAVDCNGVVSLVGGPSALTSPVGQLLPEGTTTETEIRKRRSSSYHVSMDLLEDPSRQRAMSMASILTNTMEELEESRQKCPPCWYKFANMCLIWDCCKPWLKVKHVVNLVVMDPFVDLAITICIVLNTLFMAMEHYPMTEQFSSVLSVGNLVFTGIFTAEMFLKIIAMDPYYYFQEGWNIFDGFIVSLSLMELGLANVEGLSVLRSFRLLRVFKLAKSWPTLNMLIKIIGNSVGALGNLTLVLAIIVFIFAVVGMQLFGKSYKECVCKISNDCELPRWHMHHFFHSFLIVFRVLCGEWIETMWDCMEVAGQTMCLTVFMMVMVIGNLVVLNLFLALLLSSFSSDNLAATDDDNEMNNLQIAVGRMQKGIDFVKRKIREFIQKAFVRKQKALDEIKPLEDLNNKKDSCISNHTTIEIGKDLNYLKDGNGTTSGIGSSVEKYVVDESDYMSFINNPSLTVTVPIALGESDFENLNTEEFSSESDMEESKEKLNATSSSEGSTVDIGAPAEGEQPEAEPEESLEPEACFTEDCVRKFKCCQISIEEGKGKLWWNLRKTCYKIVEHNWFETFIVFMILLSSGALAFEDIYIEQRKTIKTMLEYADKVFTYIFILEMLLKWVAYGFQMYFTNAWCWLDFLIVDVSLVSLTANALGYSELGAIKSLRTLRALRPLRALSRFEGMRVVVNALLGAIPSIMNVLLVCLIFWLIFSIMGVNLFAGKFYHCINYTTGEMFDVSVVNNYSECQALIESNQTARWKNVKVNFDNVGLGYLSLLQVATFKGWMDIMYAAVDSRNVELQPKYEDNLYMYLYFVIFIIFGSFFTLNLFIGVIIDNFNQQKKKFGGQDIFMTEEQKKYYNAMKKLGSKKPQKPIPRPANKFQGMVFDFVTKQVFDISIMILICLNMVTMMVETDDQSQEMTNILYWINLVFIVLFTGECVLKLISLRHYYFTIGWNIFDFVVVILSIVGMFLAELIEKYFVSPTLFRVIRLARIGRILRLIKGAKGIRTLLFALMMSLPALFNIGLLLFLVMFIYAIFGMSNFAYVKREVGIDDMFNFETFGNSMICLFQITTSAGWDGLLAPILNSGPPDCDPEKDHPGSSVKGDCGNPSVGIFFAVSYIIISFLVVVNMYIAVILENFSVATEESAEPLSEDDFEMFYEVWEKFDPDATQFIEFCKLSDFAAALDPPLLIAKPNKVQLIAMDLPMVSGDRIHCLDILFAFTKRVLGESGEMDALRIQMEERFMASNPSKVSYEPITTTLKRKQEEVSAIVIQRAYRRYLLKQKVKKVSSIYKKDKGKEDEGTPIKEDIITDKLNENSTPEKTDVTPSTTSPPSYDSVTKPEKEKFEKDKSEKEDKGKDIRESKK", "UniProt P04775, whole entry I1760A, looked up": "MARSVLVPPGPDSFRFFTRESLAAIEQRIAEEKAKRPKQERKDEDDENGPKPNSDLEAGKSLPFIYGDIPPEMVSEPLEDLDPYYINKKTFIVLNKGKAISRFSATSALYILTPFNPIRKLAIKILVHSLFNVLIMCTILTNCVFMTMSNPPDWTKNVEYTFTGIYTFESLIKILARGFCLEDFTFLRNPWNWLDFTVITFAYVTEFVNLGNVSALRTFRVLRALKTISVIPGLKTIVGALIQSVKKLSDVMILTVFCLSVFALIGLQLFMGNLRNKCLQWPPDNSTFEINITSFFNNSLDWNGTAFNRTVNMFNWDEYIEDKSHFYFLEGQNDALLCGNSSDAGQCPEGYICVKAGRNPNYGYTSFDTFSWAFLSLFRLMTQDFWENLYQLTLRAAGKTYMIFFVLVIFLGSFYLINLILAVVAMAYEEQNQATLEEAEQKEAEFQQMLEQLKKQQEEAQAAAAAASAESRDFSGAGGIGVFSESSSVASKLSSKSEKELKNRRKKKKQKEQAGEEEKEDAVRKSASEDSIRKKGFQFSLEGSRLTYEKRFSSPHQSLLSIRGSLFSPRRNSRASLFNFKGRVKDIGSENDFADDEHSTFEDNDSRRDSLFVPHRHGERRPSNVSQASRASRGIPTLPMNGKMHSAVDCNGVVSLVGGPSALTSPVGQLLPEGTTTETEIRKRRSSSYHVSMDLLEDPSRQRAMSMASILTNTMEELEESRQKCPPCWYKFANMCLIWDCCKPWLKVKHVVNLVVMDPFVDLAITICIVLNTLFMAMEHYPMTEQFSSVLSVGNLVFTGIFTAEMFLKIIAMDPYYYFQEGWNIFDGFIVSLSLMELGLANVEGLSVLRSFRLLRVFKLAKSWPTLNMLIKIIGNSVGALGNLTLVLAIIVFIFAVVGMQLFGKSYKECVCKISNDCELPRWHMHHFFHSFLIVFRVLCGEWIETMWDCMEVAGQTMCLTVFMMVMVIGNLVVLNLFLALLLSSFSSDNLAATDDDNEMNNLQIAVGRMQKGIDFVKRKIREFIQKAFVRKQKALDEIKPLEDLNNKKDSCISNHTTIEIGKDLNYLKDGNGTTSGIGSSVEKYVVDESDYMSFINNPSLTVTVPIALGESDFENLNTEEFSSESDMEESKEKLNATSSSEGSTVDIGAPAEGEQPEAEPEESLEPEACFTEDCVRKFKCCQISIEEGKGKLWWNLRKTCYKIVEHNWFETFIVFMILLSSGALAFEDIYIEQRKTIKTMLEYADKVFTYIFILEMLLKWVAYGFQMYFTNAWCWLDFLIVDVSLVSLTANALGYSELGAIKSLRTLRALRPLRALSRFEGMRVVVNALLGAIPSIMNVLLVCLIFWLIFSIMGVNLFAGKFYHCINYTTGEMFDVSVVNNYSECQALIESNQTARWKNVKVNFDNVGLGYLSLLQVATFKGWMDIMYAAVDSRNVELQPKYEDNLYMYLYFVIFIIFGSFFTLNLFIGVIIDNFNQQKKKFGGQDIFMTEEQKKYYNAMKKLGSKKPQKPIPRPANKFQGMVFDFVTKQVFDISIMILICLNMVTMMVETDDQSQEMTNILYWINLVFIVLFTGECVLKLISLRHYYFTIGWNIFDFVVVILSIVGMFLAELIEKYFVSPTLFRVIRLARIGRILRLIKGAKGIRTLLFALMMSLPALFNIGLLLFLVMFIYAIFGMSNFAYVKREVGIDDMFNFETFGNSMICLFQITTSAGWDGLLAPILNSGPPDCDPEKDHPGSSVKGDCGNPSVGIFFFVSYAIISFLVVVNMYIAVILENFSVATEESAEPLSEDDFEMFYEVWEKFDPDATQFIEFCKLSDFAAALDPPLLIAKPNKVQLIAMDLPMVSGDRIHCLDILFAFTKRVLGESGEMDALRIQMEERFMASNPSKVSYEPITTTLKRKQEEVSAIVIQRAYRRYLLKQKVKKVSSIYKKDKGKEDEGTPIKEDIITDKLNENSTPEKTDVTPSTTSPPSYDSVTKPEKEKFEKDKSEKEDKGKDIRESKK"},
  "source": "paper PMC6784055",
  "about": "(Toxins, 2019)",
  "key": {"[1]": {"system": "Nav1.2 F414A", "test": "Saturation binding, IS6 alanine mutant"}, "[2]": {"system": "Nav1.2 G412A", "test": "Saturation binding, IS6 alanine mutant"}, "[3]": {"system": "Nav1.2 L407A", "test": "Saturation binding, IS6 alanine mutant"}, "[4]": {"system": "Nav1.2 M402A", "test": "Saturation binding, IS6 alanine mutant"}, "[5]": {"system": "Nav1.2 V408A", "test": "Saturation binding, IS6 alanine mutant"}, "[6]": {"system": "Nav1.2 Y415A", "test": "Saturation binding, IS6 alanine mutant"}, "[7]": {"system": "Nav1.2 G1664A", "test": "Saturation binding, IVS5 alanine mutant"}, "[8]": {"system": "Nav1.2 G1678A", "test": "Saturation binding, IVS5 alanine mutant"}, "[9]": {"system": "Nav1.2 I1663A", "test": "Saturation binding, IVS5 alanine mutant"}, "[10]": {"system": "Nav1.2 L1665A", "test": "Saturation binding, IVS5 alanine mutant"}, "[11]": {"system": "Nav1.2 L1666A", "test": "Saturation binding, IVS5 alanine mutant"}, "[12]": {"system": "Nav1.2 L1669A", "test": "Saturation binding, IVS5 alanine mutant"}, "[13]": {"molecular_target": "Nav1.2 N1662A (Rattus norvegicus, UniProt P04775, N1662A)", "test": "Saturation binding, IVS5 alanine mutant", "settings": "protein detected in immunoblot with anti-SP20"}, "[14]": {"system": "Nav1.2 V1670A", "test": "Saturation binding, IVS5 alanine mutant"}, "[15]": {"system": "Nav1.2 Y1684A", "test": "Saturation binding, IVS5 alanine mutant"}, "[16]": {"molecular_target": "Nav1.2 F1756A (Rattus norvegicus, UniProt P04775, F1756A)", "test": "Saturation binding, IVS6 alanine mutant"}, "[17]": {"molecular_target": "Nav1.2 I1760A (Rattus norvegicus, UniProt P04775, I1760A)", "test": "Saturation binding, IVS6 alanine mutant"}, "[18]": {"molecular_target": "Nav1.2 I1761 (Rattus norvegicus, UniProt P04775, I1761A)", "test": "Saturation binding, IVS6 alanine mutant"}, "[19]": {"molecular_target": "Nav1.2 I1772A (Rattus norvegicus, UniProt P04775, I1772A)", "test": "Saturation binding, IVS6 alanine mutant"}, "[20]": {"system": "Nav1.2 S1758A", "test": "Saturation binding, IVS6 alanine mutant"}, "[21]": {"molecular_target": "Nav1.2 Y1771A (Rattus norvegicus, UniProt P04775, Y1771A)", "test": "Saturation binding, IVS6 alanine mutant"}, "[22]": {"molecular_target": "Nav1.2 (Rattus norvegicus, UniProt P04775)", "test": "[42-^3H]-PbTx3 dissociation kinetics, Nav1.2", "settings": "4 °C, dissociation started with 600 nM PbTx1"}, "[23]": {"molecular_target": "T1, Nav1.5 (Homo sapiens, UniProt Q14524)", "test": "[42-^3H]-PbTx3 dissociation kinetics, Nav1.5"}, "[24]": {"system": "Nav1.2 E1688A", "test": "Saturation binding, IVS5-SS1 loop alanine mutant"}, "[25]": {"system": "Nav1.2 F1697A", "test": "Saturation binding, IVS5-SS1 loop alanine mutant"}, "[26]": {"molecular_target": "Nav1.4 (Homo sapiens, UniProt P35499)", "test": "Saturation binding of [42-^3H]-PbTx3 to transiently expressed Nav1.4", "settings": "mean ± SEM, n = 5"}, "[27]": {"molecular_target": "T1, Nav1.5", "test": "Saturation binding of [42-^3H]-PbTx3 to transiently expressed Nav1.5"}, "[28]": {"molecular_target": "wild type Nav1.2 (Rattus norvegicus, UniProt P04775)", "test": "Saturation binding of [42-^3H]-PbTx3 to membrane fractions of transfected tsA-201 cells, wild type", "settings": "read-out: dissociation constant (Kd); wild type Nav1.2 in tsA-201 membrane fractions, 3 h incubation, one-site model; mean ± SEM, n = 30"}},
  "data": [
    {"compound": "[3H]C(O)C(=C)C[C@@H]1C[C@H](O)[C@]2(C)O[C@@H]3C[C@@H]4O[C@@H]5C[C@]6(C)O[C@]7(C)CC[C@@H]8O[C@@H]9C[C@]%10(C)O[C@@H]%11C(C)=CC(=O)O[C@H]%11C[C@H]%10O[C@H]9C[C@@H](C)[C@H]8O[C@H]7C[C@H]6O[C@@]5(C)C/C=C\\[C@H]4O[C@H]3C[C@H]2O1", "note": "(stereo partly drawn)", "values": [
      {"measurement": "decrease in Kd vs wild type", "setting": "[1]", "value": "2–3 fold"},
      {"measurement": "decrease in Kd vs wild type", "setting": "[2]", "value": "2–3 fold"},
      {"measurement": "increase of Kd vs wild type", "setting": "[3]", "value": "2–3 fold"},
      {"measurement": "increase of Kd vs wild type", "setting": "[4]", "value": "2–3 fold"},
      {"measurement": "increase of Kd vs wild type", "setting": "[5]", "value": "2–3 fold"},
      {"measurement": "decrease in Kd vs wild type", "setting": "[6]", "value": "2–3 fold"},
      {"measurement": "Kd greater than WT", "setting": "[7]", "value": "2–3 fold"},
      {"measurement": "increase of affinity vs WT", "setting": "[8]", "value": "approximately 2 fold"},
      {"measurement": "Kd greater than WT", "setting": "[9]", "value": "2–3 fold"},
      {"measurement": "Kd greater than WT", "setting": "[10]", "value": "2–3 fold"},
      {"measurement": "Kd greater than WT", "setting": "[11]", "value": "2–3 fold"},
      {"measurement": "increase of affinity vs WT", "setting": "[12]", "value": "approximately 2 fold"},
      {"measurement": "binding to mutant channel", "setting": "[13]", "value": "did not bind"},
      {"measurement": "increase of affinity vs WT", "setting": "[14]", "value": "approximately 2 fold"},
      {"measurement": "increase of affinity vs WT", "setting": "[15]", "value": "approximately 2 fold"},
      {"measurement": "change of Kd vs WT", "setting": "[16]", "value": "increase in Kd"},
      {"measurement": "change of Kd vs WT", "setting": "[17]", "value": "increase in Kd"},
      {"measurement": "change of Kd vs WT", "setting": "[18]", "value": "increase in Kd"},
      {"measurement": "change of Kd vs WT", "setting": "[19]", "value": "increase in Kd"},
      {"measurement": "decrease of Kd vs WT", "setting": "[20]", "value": 2, "unit": "fold"},
      {"measurement": "change of Kd vs WT", "setting": "[21]", "value": "increase in Kd"},
      {"measurement": "rate constant for toxin dissociation (kd-1.2)", "setting": "[22]", "value": "0.000617 ± 0.000167", "unit": "s⁻¹"},
      {"measurement": "rate constant for toxin dissociation (kd-1.5)", "setting": "[23]; Nav1.5, 4 °C, dissociation started with 600 nM PbTx1", "value": "0.00217 ± 0.00033", "unit": "s⁻¹"},
      {"measurement": "dissociation from Nav1.5 faster than from Nav1.2", "setting": "[23]; Nav1.5 vs Nav1.2", "value": "about 4 fold"},
      {"measurement": "increase of binding affinity vs WT", "setting": "[24]", "value": "approximately 2 fold"},
      {"measurement": "increase of binding affinity vs WT", "setting": "[25]", "value": "approximately 2 fold"},
      {"measurement": "Kd", "setting": "[26]", "value": 1.8, "unit": "nM"},
      {"measurement": "Kd", "setting": "[27]; Nav1.5, mean ± SEM, n = 6", "value": 12, "unit": "nM"},
      {"measurement": "increase of Kd for Nav1.5 relative to Nav1.2", "setting": "[27]; Nav1.5 vs Nav1.2", "value": "approximately 5 fold"},
      {"measurement": "Kd", "setting": "[28]", "value": 2.4, "unit": "nM"}
    ]}
  ]
}
